Reference: patent publication US11980632B2 (priority 2020, dated 2024)

Columns and labels:
[1] = test system: nitric oxide (NO) production in A549 cells; details: A549 cells passage-cultured 3 passages at 1.0 g/L, H1N1 infected, medium collected at 48 hours
[2] = test system: corona-pseudovirus; details: Calu-3, 4 passages, 1 g/L 3-FL
[3] = test system: influenza H1N1 virus; details: MDCK medium with 1 or 10 g/L 2′-FL, 0 to 3 passages, H1N1, 72 hours; regardless of concentration or number of passages
[4] = test system: H1N1 influenza virus; details: 0.1 or 1.0 g/L, 0, 1 and 3 passages, MDCK, H1N1, 18 hours; regardless of concentration and number of passages

SMILES	NO concentration relative to the experimental group treated with PBS [1]	fluorescence compared to the control group passage-cultured in normal culture medium [2]	reduction in plaque formation [3]	cytopathic effect reduction [4]
C[C@@H]1OC([C@]2(O)[C@H](O[C@@H]3O[C@H](CO)[C@H](O)[C@H](O)[C@H]3O)[C@@H](CO)OC(O)[C@@H]2O)[C@@H](O)[C@H](O)[C@@H]1O (stereo partly shown)	about 3.9 fold	¼	–	–
C[C@@H]1OC([C@]2(O)[C@H](O[C@H]3[C@H](O)[C@@H](O)C(O)O[C@@H]3CO)O[C@H](CO)[C@H](O)[C@@H]2O)[C@@H](O)[C@H](O)[C@@H]1O (stereo partly shown)	–	–	did not exhibit a reduction in plaque formation	did not exhibit a great cytopathic effect reduction
